# Data as given in PubChem BioAssay AID624099 (ICCB-Longwood, 2012).
# Screen: 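Knock-downs relieving repression by E2 of an HPV18 LCR luciferase reporter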 (primary screen)
# System: human C33A cervical carcinoma cells (HPV-negative) stably expressing BPV1 E2 and an HPV18 LCR luciferase reporter
# Reagents: siRNA pool against human genes, 40 nM
# Timing: 72 h
# Detection: 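Per-well luciferase luminescence, z-scored on each plate against the plate mean and SD with control wells left out, then averaged across three replicate plates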
# Direction: mean z-score and z-score: higher = stronger reporter signal, weaker E2 silencing
# Call rule: 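Hit if mean z-score reaches 2 and two or more of three replicate z-scores also reach 2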
# The whole screen tested about 21,000 reagents; below is an unselected part. 497 of all reagents (2.4%) were called active. 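Higher z means weaker E2 silencing; only reporter increases were scored, and knock-downs that hurt cell survival may mask genuine repressor factors.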 Unmarked entries are inactive.
The first 2 records, ahead of the listing:
gene symbol,mean z-score,"z-score, replicate A","z-score, replicate B","z-score, replicate C"
MCFD2,-0.02,0.22,-0.46,0.19
TRABD,0.06,0.05,-0.13,0.26

The listing, from the start:
gene symbol,mean z-score,"z-score, replicate A","z-score, replicate B","z-score, replicate C"
MCFD2,-0.02,0.22,-0.46,0.19
TRABD,0.06,0.05,-0.13,0.26
TIMM29,0.67,0.75,0.36,0.89
DDX60,1.27,1.47,1.66,0.68
PHKA1,-1.08,-0.9,-1.31,-1.04
GABARAPL2,1.62,1.51,1.67,1.69
EXT2,-0.68,-0.96,-0.59,-0.49
ACKR3,0.16,0.19,0.28,0
CCNB1IP1,-1.36,-1.29,-1.38,-1.4
CCNH,-0.42,-0.39,-0.42,-0.44
HDIP1,0.07,-0.08,-0.03,0.32
EN2,0.98,1.04,0.79,1.11
BFSP1,-0.46,-0.28,-0.63,-0.46
CLDN7,-0.41,-0.39,-0.44,-0.39
ADPGK,0.45,0.68,0.3,0.38
LOC400842 (retired record),0.41,0.57,0.15,0.52
VSIG10L2,-0.31,0.19,-0.6,-0.52
RNH1,-1.02,-1.04,-1.29,-0.74
SSX7,1.29,1.71,1.11,1.06
GOLM2,-1.53,-1.8,-1.27,-1.53
RWDD3,0,0.21,-0.16,-0.06
TESMIN,0.92,0.84,0.83,1.09
BAZ1A,0.14,0.39,0.08,-0.03
